Assay results taken from ChEMBL document CHEMBL3297661, “1-Substituted-5-[(3,5-dinitrobenzyl)sulfanyl]-1H-tetrazoles and their isosteric analogs: A new class of selective antitubercular agents active against drug-susceptible and multidrug-resistant mycobacteria” (Eur J Med Chem, 2014).
In brackets after ≈: the same amount, converted by molar mass.

Key:
Assay type in all cases: functional
[1] = tested on: Mycobacterium tuberculosis; experiment: Antimycobacterial activity against multidrug-resistant Mycobacterium tuberculosis Praha 4 after 7 days by micromethod
[2] = tested on: Mycobacterium tuberculosis; experiment: Antimycobacterial activity against multidrug-resistant Mycobacterium tuberculosis Praha 131 after 7 days by micromethod
[3] = tested on: Mycobacterium tuberculosis; experiment: Antimycobacterial activity against multidrug-resistant Mycobacterium tuberculosis 8666/2010 after 7 days by micromethod
[4] = tested on: Mycobacterium tuberculosis; experiment: Antimycobacterial activity against multidrug-resistant Mycobacterium tuberculosis Praha 1 after 7 days by micromethod
[5] = tested on: Mycobacterium tuberculosis; experiment: Antimycobacterial activity against multidrug-resistant Mycobacterium tuberculosis 9449/2007 after 7 days by micromethod
[6] = tested on: Mycobacterium tuberculosis; experiment: Antimycobacterial activity against multidrug-resistant Mycobacterium tuberculosis 234/2005 after 7 days by micromethod

O=[N+]([O-])c1ccc(-n2nnnc2SCc2cc([N+](=O)[O-])cc([N+](=O)[O-])c2)cc1
MIC [1]: 0.5 µM (≈ 0.202 µg/mL) | MIC [2]: 0.5 µM (≈ 0.202 µg/mL) | MIC [3]: 0.5 µM (≈ 0.202 µg/mL) | MIC [4]: 0.5 µM (≈ 0.202 µg/mL) | MIC [5]: 0.5 µM (≈ 0.202 µg/mL) | MIC [6]: 0.5 µM (≈ 0.202 µg/mL)

O=[N+]([O-])c1ccc(-n2nnnc2OCc2cc([N+](=O)[O-])cc([N+](=O)[O-])c2)cc1
MIC [1]: 1 µM (≈ 0.387 µg/mL) | MIC [2]: 2 µM (≈ 0.775 µg/mL) | MIC [3]: 0.5 µM (≈ 0.194 µg/mL) | MIC [4]: 2 µM (≈ 0.775 µg/mL) | MIC [5]: 2 µM (≈ 0.775 µg/mL) | MIC [6]: 1 µM (≈ 0.387 µg/mL)
